Measurements published in US20090068207A1, “Compositions Containing Beta 2-Glycoprotein I-Derived Peptides for the Prevention and/or Treatment of Vascular Disease” (Vascular Biogenics Ltd., priority 2005, published 2009).

Assay: Body weight, plasma cholesterol and triglyceride after nasal administration (LDL-RD mice)
Format: in vivo
Settings: End, mean ± S.E

B1: HSP65: recombinant human HSP 65 according to Example 2 and Table 2 (protein, UniProt P10809 27-573, looked up)
60 kDa heat shock protein, …: AKDVKFGADARALMLQGVDLLADAVAVTMGPKGRTVIIEQSWGSPKVTKDGVTVAKSIDLKDKYKNIGAKLVQDVANNTNEEAGDGTTTATVLARSIAKEGFEKISKGANPVEIRRGVMLAVDAVIAELKKQSKPVTTPEEIAQVATISANGDKEIGNIISDAMKKVGRKGVITVKDGKTLNDELEIIEGMKFDRGYISPYFINTSKGQKCEFQDAYVLLSEKKISSIQSIVPALEIANAHRKPLVIIAEDVDGEALSTLVLNRLKVGLQVVAVKAPGFGDNRKNQLKDMAIATGGAVFGEEGLTLNLEDVQPHDLGKVGEVIVTKDDAMLLKGKGDKAQIEKRIQEIIEQLDVTTSEYEKEKLNERLAKLSDGVAVLKVGGTSDVEVNEKKDRVTDALNATRAAVEEGIVLGGGCALLRCIPALDSLTPANEDQKIGIEIIKRTLKIPAMTIAKNAGVEGSLIVEKIMQSSSEVGYDAMAGDFVNMVEKGIIDPTKVVRTALLDAAGVASLLTTAEVVVTEIPKEEKDPGMGAMGGMGGGMGGGMF
Triglyceride (intranasal 1 μg/mouse): 315 ± 46 mg/dL
Weight (intranasal 1 μg/mouse): 26.9 ± 0.9 g
Triglyceride (intranasal 10 μg/mouse): 348 ± 32 mg/dL
Weight (intranasal 10 μg/mouse): 28.4 ± 1.0 g
